Assay results: PMC7143421 (Marine Drugs, 2020)

System: mice
Settings: mouse, in vivo

SMILES: C1COCCN1 [morpholine]
- Pain Threshold (s) 15 min: 17.19 ± 2.22 s
- Pain Threshold (s) 30 min: 41.80 ± 4.58 s
- Pain Threshold (s) 60 min: 50.41 ± 6.59 s
- Pain Threshold (s) 120 min: 50.82 ± 4.35 s
- Pain Threshold (s) 180 min: 47.11 ± 4.04 s
- pain threshold (s) 15min: 17.19 ± 2.22 s
- pain threshold (s) 30min: 41.80 ± 4.58 s
- pain threshold (s) 60min: 50.41 ± 6.59 s
- pain threshold (s) 120min: 50.82 ± 4.35 s
- pain threshold (s) 180min: 47.11 ± 4.04 s
